Results of unrelated studies side by side (data: NIAID ChemDB).

All rows: whole-cell or culture tests; organism: Herpes simplex virus 1; read-out: EC50

a–b is a range or a potency band.

SMILES	strain	cells	method	result
CCCCCCCCCCCCCCCCCCOC[C@H](COP(=O)(O)CO[C@H](CO)Cn1ccc(N)nc1=O)OCc1ccccc1	E-377	HFF	plaque count	0.04 µM
O=c1[nH]c(=O)n([C@H]2C[C@H](O)[C@@H](CO)O2)cc1CN1CCCC1	KOS	PRK	cytopathic effect	>200 µg/mL
OC[C@H]1O[C@H](c2cc(Br)c(F)cc2F)C[C@@H]1O	F	E6SM	cytopathic effect	>400 µg/mL
CCc1cn([C@H]2C[C@H](O)[C@@H](CO)O2)c(=O)[nH]c1=O	42-78	HELF	plaque count	180 µM
O=c1c2ncn(COCCO)c2[nH]c2ncc(C(c3ccccc3)(c3ccccc3)c3ccccc3)n12	McIntyre	-	cytopathic effect	>16 µg/mL
Cc1cc(N(C)C)nc2cc(N)ccc12	-	KB	plaque count	2 µg/mL
O=c1[nH]c(=O)n([C@H]2C[C@H](O)[C@@H](CO)O2)cc1I	KOS	PRK	cytopathic effect	0.2 µg/mL
Nc1ncnc2c1ncn2[C@@H]1O[C@H](CO)[C@@H](O)[C@@H]1O	ACG-resistant	RK-13	plaque count	19 µM
COc1ccc(-c2cn3c(=O)c4ncn(COC(CO)CO)c4nc3[nH]2)cc1	F	-	cytopathic effect	0.005 µg/mL
Nc1nc(=O)n([C@@H]2O[C@H](CO)[C@@H](O)[C@@H]2F)cc1I	V3	HELF	plaque count	0.12 µM
CCCCCCCCCCCCOCCCOP1(=O)CO[C@@H](Cn2ccc(N)nc2=O)CO1	HL-3	HFF	plaque count	>1 µM
Cc1cc(=O)c2ccc(N(C)C)cc2[nH]1	-	KB	plaque count	19 µg/mL
Nc1nc2c(ncn2COCCO)c(=O)[nH]1	F	HFF	cytopathic effect	0.5 µg/mL
Nc1ccn(C[C@@H](CO)OCP(=O)(O)O)c(=O)n1	HL-34	HFF	plaque count	1.7 µg/mL
O=c1c2ncn(COC(CO)CO)c2[nH]c2nccn12	TK-deficient acyclovir-resistant	-	cytopathic effect	400 µg/mL
CN(C)c1ccc2c(N(C)C)cc(N(C)C)nc2c1	-	KB	plaque count	4 µg/mL
CCCCCCCCCCCCCCCCCOC[C@H](COP1(=O)CO[C@@H](Cn2ccc(N)nc2=O)CO1)OCc1ccccc1	HL-3	HFF	plaque count	>1 µM
OC[C@H]1O[C@@H](c2cc(/C=C/I)c(F)cc2F)C[C@@H]1O	F	E6SM	cytopathic effect	48 µg/mL
CCCc1cn([C@H]2C[C@H](O)[C@@H](CO)O2)c(=O)[nH]c1=O	LYONS	Primary rabbit kidney cells	cytopathic effect	10 µg/mL
O=C(NCc1ccc(Cl)cc1)c1c[nH]c2c(F)cccc2c1=O	Patton	-	plaque count	40 µM
O=c1c2ncn(COC(CO)CO)c2nc2[nH]c(-c3ccccc3)cn12	F	-	cytopathic effect	0.005 µg/mL
Nc1nc(=O)n([C@H]2C[C@H](O)[C@@H](CO)O2)cc1/C=C/Cl	VMW1837 (TK-)	PRK	cytopathic effect	>400 µg/mL
C[C@@H](c1ccccc1)N(CC(=O)Nc1ccc(-c2csc(N)n2)cc1)C(=O)c1ccncc1	F	BHK-21/C13	plaque count	0.09 µM
C=Cc1cn([C@H]2C[C@H](O)[C@@H](CO)O2)c(=O)[nH]c1=O	77	HELF	plaque count	0.08 µM
OC[C@H]1O[C@@H](c2cc(I)c(F)cc2F)C[C@@H]1O	McIntyre	E6SM	cytopathic effect	>400 µg/mL
Cc1cc2nc3c4ccccc4n(CCN(C)C)c3nc2cc1C	C42	A549	ELISA	2.19 µM
Nc1nc2c(ncn2COC(CO)CO)c(=O)[nH]1	ICI	BHK-21	plaque count	0.06 µM
O=c1[nH]c(=O)n([C@@H]2O[C@H](CO)[C@@H](O)[C@@H]2O)cc1I	77	HELF	plaque count	70 µM
CC(=O)OC[C@H]1[C@H](COC(C)=O)[C@@H](COC(C)=O)O[C@H]1n1cnc2c(N)ncnc21	Clinical isolate HL-3	MEF	plaque count	124 µM
CC(=O)Nc1ccc2c(C)cc(N)nc2c1	-	KB	plaque count	3 µg/mL
OC[C@H]1O[C@H](c2cc(Cl)c(F)cc2F)C[C@@H]1O	VMW 1837	E6SM	cytopathic effect	>400 µg/mL
[N-]=[N+]=NCc1cn([C@H]2C[C@H](O)[C@@H](CO)O2)c(=O)[nH]c1=O	VEW257	PRK	cytopathic effect	2 µg/mL
CCCCCCCCCCCCCCCCCCOCCCOP1(=O)CO[C@@H](Cn2ccc(N)nc2=O)CO1	F	HFF	plaque count	>1 µM
OC[C@H]1O[C@@H](c2cc(Br)c(F)cc2F)C[C@@H]1O	VMW 1837	E6SM	cytopathic effect	>400 µg/mL
O=c1[nH]c(=O)n([C@H]2C[C@H](O)[C@@H](CO)O2)cc1/C=C/Br	77	HELF	plaque count	0.026 µM
Nc1nc(=O)n([C@H]2C[C@H](O)[C@@H](CO)O2)cc1/C=C/Br	McIntyre	Primary rabbit kidney cells	cytopathic effect	0.06 µg/mL
Nc1nc2c(ncn2C[C@]2(CO)C[C@H]2CO)c(=O)[nH]1	Tomioka	BALB/3T3	plaque count	0.0012 µg/mL
Nc1nc2c(ncn2[C@@H]2C[C@H](CO)[C@H]2CO)c(=O)[nH]1	KOS/PFA^R-1	WI-38	plaque count	0.4–0.8 µM
Nc1nc(=O)n([C@H]2C[C@H](O)[C@@H](CO)O2)cc1/C=C\Cl	VMW1837 (TK-)	PRK	cytopathic effect	>200 µg/mL
Nc1nc2c(ncn2CC(CO)CCO)c(=O)[nH]1	C42	HL	-	1 µM
OC[C@H]1O[C@@H](c2cc(/C=C/Br)c(F)cc2F)C[C@@H]1O	McIntyre	E6SM	cytopathic effect	>400 µg/mL
Nc1nc2c(ncn2CCC(CO)CO)c(=O)[nH]1	5 isolates	MRC-5	plaque count	0.84 µg/mL
Cc1cc(Cl)c2ccc(N(C)C)cc2n1	-	KB	plaque count	3 µg/mL
O=c1c2ncn(COCCO)c2[nH]c2ncc(CO)n12	TK-deficient acyclovir-resistant	-	cytopathic effect	>3.2 µg/mL
O=Cc1cn([C@H]2C[C@H](O)[C@@H](CO)O2)c(=O)[nH]c1=O	McIntyre	PRK	cytopathic effect	0.7 µg/mL
CCc1cn([C@H]2C[C@H](O)[C@@H](CO)O2)c(=O)[nH]c1=O	KOS	Primary rabbit kidney cells	cytopathic effect	1 µg/mL
CCCCCCCCCCCCOCCCOP(=O)(O)CO[C@H](CO)Cn1ccc(N)nc1=O	F	HFF	plaque count	0.5 µM
Nc1nc2c(ncn2COC(CO)CO)c(=O)[nH]1	KOS	WI-38	plaque count	0.04 µM
Cc1cnc2cc(N(C)C)ccc2c1	-	KB	plaque count	9 µg/mL
OC[C@H]1O[C@@H](c2cc(C(F)(F)F)c(F)cc2F)C[C@@H]1O	KOS/ACV-R	E6SM	cytopathic effect	>400 µg/mL
Nc1ccn(C[C@H]2COP(=O)(O)CO2)c(=O)n1	HL-3	HFF	plaque count	33.11 µM
Cc1cn([C@@H]2O[C@H](CO)[C@H]2CO)c(=O)[nH]c1=O	123	HFF	plaque count	0.012 µg/mL
CC(=O)Nc1ccc2c(C)cc(N(C)C)nc2c1	-	KB	plaque count	6 µg/mL
O=Cc1cn([C@H]2C[C@H](O)[C@@H](CO)O2)c(=O)[nH]c1=O	77	HELF	plaque count	80 µM
Nc1nc2c(ncn2CC[C@@H](O)CO)c(=O)[nH]1	C42	BHK	plaque count	23 µM
Nc1nc2c(ncn2COC2COP(=O)(O)OC2)c(=O)[nH]1	-	HEF	cytopathic effect	1.69 µM
CN(C)c1ccc2ccc(=O)[nH]c2c1	-	KB	plaque count	5 µg/mL
Nc1nc2c(ncn2C/C=C\CO)c(=O)[nH]1	SC16	VERO	plaque count	8.6 µM
OC[C@H]1O[C@@H](c2cc(F)c(F)cc2F)C[C@@H]1O	KOS	E6SM	cytopathic effect	>400 µg/mL
C=Cc1cc([C@H]2C[C@H](O)[C@@H](CO)O2)c(F)cc1F	McIntyre	E6SM	cytopathic effect	>400 µg/mL
CC(=O)OC[C@H]1[C@H](COC(C)=O)[C@@H](CO)O[C@H]1n1cnc2c(N)ncnc21	Clinical isolate Wilson	MEF	plaque count	152 µM
O=c1[nH]c(=O)n([C@H]2C[C@H](O)[C@@H](CO)O2)cc1I	42-78	HELF	plaque count	100 µM
OC[C@H]1O[C@H](c2cc(F)c(F)cc2F)C[C@@H]1O	KOS/ACV-R	E6SM	cytopathic effect	>400 µg/mL

Repeating the final 7 entries:

SMILES	strain	cells	method	result
CN(C)c1ccc2ccc(=O)[nH]c2c1	-	KB	plaque count	5 µg/mL
Nc1nc2c(ncn2C/C=C\CO)c(=O)[nH]1	SC16	VERO	plaque count	8.6 µM
OC[C@H]1O[C@@H](c2cc(F)c(F)cc2F)C[C@@H]1O	KOS	E6SM	cytopathic effect	>400 µg/mL
C=Cc1cc([C@H]2C[C@H](O)[C@@H](CO)O2)c(F)cc1F	McIntyre	E6SM	cytopathic effect	>400 µg/mL
CC(=O)OC[C@H]1[C@H](COC(C)=O)[C@@H](CO)O[C@H]1n1cnc2c(N)ncnc21	Clinical isolate Wilson	MEF	plaque count	152 µM
O=c1[nH]c(=O)n([C@H]2C[C@H](O)[C@@H](CO)O2)cc1I	42-78	HELF	plaque count	100 µM
OC[C@H]1O[C@H](c2cc(F)c(F)cc2F)C[C@@H]1O	KOS/ACV-R	E6SM	cytopathic effect	>400 µg/mL

Lines come from different laboratories, so protocols vary. An empty or dashed field is not shown. ECn is the concentration giving n% inhibition of infection, replication or growth.